According to patent US6624288B1 (priority 1997, dated 2003):

Assays:
[1] = system: blowfly (Sarcophaga) larvae; assay: Injection bioassay in blowfly larvae; conditions: 1 nmole per 100 mg body weight
fish (Gambusia affinis) = assay: Injection bioassay in fish; conditions: 1 nmole per 100 mg body weight

CC(C)C[C@H](NC(=O)[C@H](CC(C(=O)O)C(=O)O)NC(=O)[C@@H]1CSSC[C@@H]2NC(=O)[C@H](CC(C(=O)O)C(=O)O)NC(=O)[C@H](CO)NC(=O)[C@H](CC(N)=O)NC(=O)[C@H](C(C)C)NC(=O)[C@H]([C@@H](C)O)NC(=O)[C@@H]3CSSC[C@H](NC(=O)[C@H](CO)NC(=O)[C@H](CC(N)=O)NC(=O)[C@H](CO)NC(=O)[C@H](CSSC[C@H](NC(=O)[C@@H](N)CC(=O)O)C(=O)N[C@@H]([C@@H](C)O)C(=O)N[C@@H](CO)C(=O)N[C@@H](Cc4c[nH]c5ccccc45)C(=O)N[C@@H](Cc4ccccc4)C(=O)NCC(=O)N[C@@H](CCCNC(=N)N)C(=O)N3)NC2=O)C(=O)N[C@@H](CC(=O)O)C(=O)N[C@@H](CCC(N)=O)C(=O)N[C@@H]([C@@H](C)O)C(=O)N[C@@H](Cc2ccc(O)cc2)C(=O)N1)C(=O)N[C@@H](Cc1ccc(O)cc1)C(=O)N[C@@H](C)C(=O)N[C@@H](Cc1ccccc1)C(=O)N1C[C@H](O)C[C@H]1C(=O)N[C@@H](CO)C(=O)O
toxic or other effects upon injection in blowfly (Sarcophaga) larvae [1]: No toxic or other effects
toxic or other effects upon injection in Gambusia fish (fish (Gambusia affinis)): No toxic or other effects
